Data reported in paper PMC4721062, “Oxadiazole-2-oxides may have other functional targets, in addition to SjTGR, through which they cause mortality in Schistosoma japonicum” (Parasites & Vectors, 2016).

What was measured:
[1] = Nitric oxide (NO) release on incubation with cysteine; conditions: 10 μM compound incubated with 5 mM cysteine, 50 min, room temperature
SjTGR = test: NO production on incubation with SjTGR alone or SjTGR + NADPH; type: biochemical, Schistosoma japonicum; conditions: 10 μM compound, 50 min; for NO production, SjTGR + NADPH: 15 nM SjTGR + 100 μM NADPH; for NO production, SjTGR: 15 nM SjTGR alone
[2] = tested on: S. japonica adult worm homogenate supernatant; test: NO production on incubation with worm homogenate supernatant; set-up: species or system Schistosoma japonicum; conditions: 10 μM compound, worm homogenate (100 μg), 50 min

Compound: COc1ccc(-c2no[n+]([O-])c2CO)cc1 [Compound 4a]
- NO released [1]: did not release NO

Compound: Cc1ccc(-c2no[n+]([O-])c2CO)cc1 [Compound 4b]
- NO released [1]: did not release NO
- NO production, SjTGR + NADPH (SjTGR): 6.5 ± 0.9 µM
- NO production, SjTGR (SjTGR): 3.8 ± 0.7 µM
- NO production, Worm homogenate supernatant [2]: 7.6 ± 0.7 µM

Compound: N#Cc1c(-c2ccc(Br)cc2)no[n+]1[O-] [Compound 7c]
- NO released [1]: 9.0 ± 0.5 µM
- NO production, SjTGR + NADPH (SjTGR): 9.2 ± 0.1 µM
- NO production, SjTGR (SjTGR): 6.0 ± 0.1 µM
- NO production, Worm homogenate supernatant [2]: 10.9 ± 1.2 µM

Compound: N#Cc1c(-c2ccc(OCCCBr)cc2)no[n+]1[O-] [Compound 13]
- NO released [1]: 8.6 ± 0.4 µM
- NO production, SjTGR + NADPH (SjTGR): 7.5 ± 1.0 µM
- NO production, SjTGR (SjTGR): 5.2 ± 0.3 µM
- NO production, Worm homogenate supernatant [2]: 8.6 ± 1.1 µM

Compound: N#Cc1c(-c2ccc(OC/C=C/CBr)cc2)no[n+]1[O-] [Compound 16]
- NO released [1]: 8.3 ± 0.0 µM
- NO production, SjTGR + NADPH (SjTGR): 5.0 ± 0.3 µM
- NO production, SjTGR (SjTGR): 2.5 ± 0.4 µM
- NO production, Worm homogenate supernatant [2]: 9.4 ± 1.2 µM

Compound: N#Cc1c(-c2ccc(OCc3ccccc3)cc2)no[n+]1[O-] [Compound 19]
- NO released [1]: did not release NO

Compound: C#CCOc1ccc(-c2no[n+]([O-])c2C#N)cc1 [Compound 20]
- NO released [1]: 8.8 ± 0.7 µM
- NO production, SjTGR + NADPH (SjTGR): 6.3 ± 0.5 µM
- NO production, SjTGR (SjTGR): 4.0 ± 0.5 µM
- NO production, Worm homogenate supernatant [2]: 7.8 ± 1.1 µM

Compound: N#Cc1c(-c2ccc(CBr)cc2)no[n+]1[O-] [Compound 22]
- NO released [1]: 9.0 ± 0.1 µM
- NO production, SjTGR + NADPH (SjTGR): 7.3 ± 1.5 µM
- NO production, SjTGR (SjTGR): 4.2 ± 0.3 µM
- NO production, Worm homogenate supernatant [2]: 7.5 ± 0.5 µM

Compound: N#Cc1c(-c2ccc(COc3ccccc3)cc2)no[n+]1[O-] [Compound 23]
- NO released [1]: did not release NO
- NO production, SjTGR + NADPH (SjTGR): 3.5 ± 0.3 µM
- NO production, SjTGR (SjTGR): 3.2 ± 0.1 µM
- NO production, Worm homogenate supernatant [2]: 7.7 ± 1.4 µM

Compound: N#Cc1c(-c2ccc(COc3ccc(C=O)cc3)cc2)no[n+]1[O-] [Compound 26]
- NO released [1]: did not release NO
- NO production, SjTGR + NADPH (SjTGR): 6.2 ± 1.2 µM
- NO production, SjTGR (SjTGR): 3.0 ± 0.8 µM
- NO production, Worm homogenate supernatant [2]: 9.8 ± 1.8 µM

Compound: O=C(C1CCCCC1)N1CC(=O)N2CCc3ccccc3C2C1 (stereo not shown) [PZQ, praziquantel, reference compound]
- NO production, SjTGR + NADPH (SjTGR): 7.3 ± 0.8 µM
- NO production, SjTGR (SjTGR): 7.2 ± 0.4 µM
- NO production, Worm homogenate supernatant [2]: 12.1 ± 2.1 µM
